This is a selection; strong and weak results do not stand in their true shares. The source made the active and inactive calls. Rule as the data show it: active = protection mostly above about 24% (no sharp cut-off); inactive = mostly below about 26%.
Assay: blockers of measles virus-induced cell death – single point, MLSMR library, absorbance, measles RdRp inhibitor project, primary screen (AID 841)
Settings: Measles virus-infected cells, CPE protection, at 4 µM, active compounds read high

Structure (SMILES) | protection (pct of control)
CP(=O)(Oc1ccccc1)N1CCOC1=O (centres undefined) | inactive: 8.11%
CCN(CC)CC(O)COC(=O)C(O)(c1ccccc1)C1CCCCC1 (centres undefined) | inactive: 12.4%
COc1ccc(OP(C)(=O)Nc2ccc(Br)cc2)cc1 (centres undefined) | inactive: 6%
CP(=O)(Nc1ccc(Cl)cc1)Oc1ccc(F)cc1 (centres undefined) | inactive: 10.2%
CC(C)(C)c1ccc(OP(C)(=O)O)cc1 | inactive: 8.59%
CP(=O)(OC12CC3CC(CC(C3)C1)C2)OC12CC3CC(CC(C3)C1)C2 | inactive: 5.84%
CCOC(=O)c1ccc(NP(C)(=O)Oc2ccc(Cl)cc2)cc1 (centres undefined) | inactive: 6.95%
COc1ccc(OP(C)(=O)Nc2ccccc2Br)cc1 (centres undefined) | inactive: 2.94%
COc1ccccc1OP(C)(=O)Nc1ccc(C)c(C)c1 (centres undefined) | inactive: 13.8%
Cc1nc2ccc3ccccc3c2o1.O=[N+]([O-])c1cc([N+](=O)[O-])c(O)c([N+](=O)[O-])c1 | inactive: 3.4%
CN(C)CCOC(=O)C(O)(c1ccccc1)C1CCCC1 (centres undefined) | inactive: 28.7%
COc1ccc(OP(C)(=O)Nc2ccccn2)cc1 (centres undefined) | inactive: 18.8%
CCc1ccc(OP(C)(=O)O)cc1 | inactive: 4.83%
CP(=O)(Nc1ccccn1)Oc1ccccc1 (centres undefined) | inactive: 5.05%
COc1ccccc1OP(C)(=O)Nc1ccc(C)cc1C (centres undefined) | inactive: 4.92%
Cc1c(NP(C)(=O)Oc2ccc(C(C)C)cc2)c(=O)n(-c2ccccc2)n1C (centres undefined) | inactive: 6.89%
CC(C)c1ccc(OP(C)(=O)Nc2ccc(SC(F)(F)F)cc2)cc1 (centres undefined) | inactive: 4.07%
CP(=O)(Nc1ccccc1F)Oc1ccccc1 (centres undefined) | inactive: 22%
O=C(OCCN1CCN(CCOCc2ccccc2)CC1)C(O)(c1ccccc1)c1ccccc1 | inactive: 5.26%
CCOC(=O)c1ccc(NP(C)(=O)Oc2ccc(F)cc2)cc1 (centres undefined) | inactive: 3.79%
CP(=O)(Nc1ccccc1)Oc1ccc(F)cc1 (centres undefined) | inactive: 5.93%
CCN(CC)CCCOC(=O)C(O)(c1ccccc1)C1CCCCC1 (centres undefined) | inactive: 7.95%
CN(C)CCOC(=O)C(O)(c1ccccc1)C1CCCCC1 (centres undefined) | inactive: 3.2%
COc1ccc(OP(C)(=O)Nc2cccc(Br)c2)cc1 (centres undefined) | inactive: 42.1%
CCOP(C)(=S)SCC(=O)NC(C)(CC)C(=O)O (centres undefined) | inactive: 14.4%

Structure (SMILES) | protection (pct of control)
Cc1ccccc1NP(C)(=O)Nc1ccccc1C | inactive: 16.2%
CP(=O)(Nc1ccc2c(c1)OCCO2)Oc1ccccc1 (centres undefined) | inactive: 8.52%
Cc1nc2ccc3ccccc3c2s1.O=[N+]([O-])c1cc([N+](=O)[O-])c(O)c([N+](=O)[O-])c1 | inactive: 8.11%
CP(=O)(Nc1ccc(SC(F)(F)F)cc1)Oc1ccccc1 (centres undefined) | inactive: 5.06%
COc1ccccc1OP(C)(=O)Nc1c(C)cccc1C (centres undefined) | inactive: 15.5%
CN1CCCCC1COC(=O)C1(O)c2ccccc2CCc2ccccc21 (centres undefined) | inactive: 10.8%
CC1=NCCc2c1[nH]c1ccccc21.O=[N+]([O-])c1cc([N+](=O)[O-])c(O)c([N+](=O)[O-])c1 | inactive: 16.6%
Cc1cc(C)cc(OP(C)(=O)Nc2ccc(C)cc2C)c1 (centres undefined) | inactive: 3.64%
CCOC(=O)c1ccc(NP(C)(=O)Oc2cc(C)cc(C)c2)cc1 (centres undefined) | inactive: 5.9%
Cc1cc(C)cc(OP(C)(=O)Nc2ccccn2)c1 (centres undefined) | inactive: 2.34%
Cc1ccc(C)c(NP(C)(=O)Oc2ccccc2)c1 (centres undefined) | inactive: 3.5%
CC(C)(C)c1ccc(OP(C)(=O)Nc2ccc(SC(F)(F)F)cc2)cc1 (centres undefined) | inactive: 2.64%
COc1ccc(OP(C)(=O)Nc2cccc(F)c2)cc1 (centres undefined) | inactive: 3.11%
CCOC(=O)c1ccc(NP(C)(=O)Oc2ccccc2)cc1 (centres undefined) | inactive: 12.3%
COc1ccccc1OP(C)(=O)Nc1ccc(C)cc1 (centres undefined) | inactive: 10.9%
Cc1ccc(NP(C)(=O)Oc2ccccc2)c(C)c1 (centres undefined) | inactive: 27.6%
CP(=O)(Nc1ccccc1Br)Oc1ccccc1 (centres undefined) | inactive: 5.37%
CP(=S)(Nn1cnnc1)Oc1ccccc1 (centres undefined) | inactive: 6.41%
CP(=O)(NC(=O)Nc1ccccc1)Oc1ccccc1 (centres undefined) | inactive: 11.4%
Cc1cc(C)cc(OP(C)(=O)Nc2ccc(SC(F)(F)F)cc2)c1 (centres undefined) | inactive: 8.34%
Cc1cccc(C)c1OP(C)(=O)Nc1ccc(SC(F)(F)F)cc1 (centres undefined) | inactive: 6.53%
CP(=O)(Nc1ccccn1)Oc1ccc(Cl)cc1 (centres undefined) | inactive: 8.9%
CCOP(C)(=S)SCC(=O)NC(C)C(=O)O (centres undefined) | inactive: 29.4%
CCOC(=O)c1ccc(NP(C)(=O)Oc2ccc(OC)cc2)cc1 (centres undefined) | inactive: 8.85%
